Pooled drug test results. Numbers come from NIAID ChemDB, via PubChem.

All rows: growth or infection tests

Inhibition is in % at the dose shown (toxicity tests: loss of growth or viability). An empty or dashed field is not shown. Neighbouring rows are from separate reports.

structure	setting	strain	tested at	read-out	method	agent	result
CCc1nc2cc(F)ccn2c1C(=O)NCc1ccc(N2CCN(c3ccc(OC(F)(F)F)cc3)[C@@H](CC)C2)c(F)c1.Cl			0.0065 µM	inhibition	fluorescence	Mycobacterium avium	85%
Cc1ccc2oc(=S)n(-c3cccc(Cl)c3)c(=S)c2c1	21 d	6509/96		MIC		Mycobacterium kansasii	4 µM
Cc1nc2cc(Cl)ccn2c1C(=O)NCc1ccc(N2CCN(c3ccc(OC(F)(F)F)cc3)[C@@H](C)C2)c(F)c1.Cl			0.11 µM	inhibition	fluorescence	Mycobacterium avium	85%
CC[C@H]1OC(=O)[C@H](C)[C@@H](OC2C[C@@](C)(OC)[C@@H](O)[C@H](C)O2)[C@H](C)[C@@H](O[C@@H]2O[C@H](C)C[C@H](N(C)C)[C@H]2O)C(C)(O)C[C@@H](C)/C(=N\OCCCOc2ccccc2)[C@H](C)[C@@H](O)[C@]1(C)O		20096 (clarithromycin-resistant)		MIC		Mycobacterium avium complex	3.13 µg/mL
CO[C@H]1/C=C/O[C@@]2(C)Oc3c(C)c(O)c4c(O)c(c(/C=N/N5CCN(C6CCCC6)CC5)c(O)c4c3C2=O)NC(=O)/C(C)=C\C=C\[C@H](C)[C@H](O)[C@@H](C)[C@@H](O)[C@@H](C)[C@H](OC(C)=O)[C@@H]1C		23-Feb		MIC		Mycobacterium avium intracellulare	0.125 µg/mL
CCc1nc(N)nc(N)c1-c1ccc(Cl)cc1		9141		MIC		Mycobacterium avium complex	32 µg/mL
O=c1oc2ccc(F)cc2c(=S)n1-c1ccc(F)cc1	14 d	My 235/80		MIC		Mycobacterium kansasii	8 µM
Cc1ccn2c(C(=O)NCc3ccc(N4CCN(c5ccc(OC(F)(F)F)cc5)[C@@H](C)C4)c(F)c3)c(Cl)nc2c1.Cl			0.077 µM	inhibition	fluorescence	Mycobacterium avium	85%
CCCCCCCCCCCCCCC(=O)NC(C)(CCC(=O)O)CCC(=O)O		ATCC 927		MIC		Mycobacterium marinum	286 µg/mL
O=c1oc2ccc(Br)cc2c(=S)n1-c1cccc(F)c1	21 d	My 235/80		MIC		Mycobacterium kansasii	8 µM
Cc1nc2ccc(F)cn2c1C(=O)NCc1ccc(N2CCN(c3ccc(OC(F)(F)F)cc3)[C@H](C)C2)c(F)c1.Cl			0.038 µM	inhibition	fluorescence	Mycobacterium avium	85%
CCCCCCCCCCCCCCCCCCCCCCCCCCCCCCOC(=O)NC(C)(CCC(=O)O)CCC(=O)O		EO-P-1		MIC		Mycobacterium chelonae	70 µg/mL
Fc1ccc(-n2c(=S)oc3ccc(Cl)cc3c2=S)cc1	21 d	My 235/80		MIC		Mycobacterium kansasii	16 µM
CCCCNNC(=O)O[C@H]1[C@H](O[C@@H]2[C@@H](C)[C@H](O[C@H]3C[C@@](C)(OC)[C@@H](OC(C)=O)[C@H](C)O3)[C@@H](C)C(=O)O[C@H](CC)[C@@](C)(O)[C@H](O)[C@@H](C)/C(=N/OCCCC3CCCCC3)[C@H](C)CC2(C)O)O[C@H](C)C[C@@H]1N(C)C		20096 (clarithromycin-resistant)		MIC		Mycobacterium avium complex	0.78 µg/mL
CCc1nc2cc(F)ccn2c1C(=O)NCc1ccc(N2CCC(c3ccc(OC(F)(F)F)cc3)CC2)c(Cl)c1.Cl			0.0077 µM	inhibition	fluorescence	Mycobacterium avium	85%
CCCCCCCCCCCCCCCCCCCOC(=O)NC(CCC(=O)O)(CCC(=O)O)CCC(=O)O		ATCC 927		MIC		Mycobacterium marinum	45 µg/mL
CC1(C)N=C(N)N=C(N)N1OCCCOc1cc(Cl)c(Cl)cc1Cl		3010		MIC		Mycobacterium avium complex	2 µg/mL
CCCCCCCCCCCCCCNC(=O)NC(CCC(=O)O)(CCC(=O)O)CCC(=O)O		EO-P-1		MIC		Mycobacterium chelonae	18 µg/mL
Cc1ccc(-n2c(=S)oc3ccc(C)cc3c2=S)cc1	21 d	My 235/80		MIC		Mycobacterium kansasii	4 µM
CC[C@H]1OC(=O)[C@H](C)[C@@H](O[C@H]2C[C@@](C)(OC)[C@@H](OC(C)=O)[C@H](C)O2)[C@H](C)[C@@H](O[C@@H]2O[C@H](C)C[C@H](N(C)C)[C@H]2OC(=O)NNCc2cccc([N+](=O)[O-])c2)C(C)(O)C[C@@H](C)/C(=N\OCCCC2CCCCC2)[C@H](C)[C@@H](O)[C@]1(C)O		20096 (clarithromycin-resistant)		MIC		Mycobacterium avium complex	0.78 µg/mL
CCCCCCCCCCCCCCCCNC(=O)NC(CCC(=O)O)(CCC(=O)O)CCC(=O)O		AAy-P-1		MIC		Mycobacterium abscessus	14 µg/mL
O=c1oc2ccc(F)cc2c(=S)n1-c1ccc(Cl)c(Cl)c1	14 d	6509/96		MIC		Mycobacterium kansasii	2 µM
CC[C@H]1OC(=O)[C@H](C)[C@@H](O[C@H]2C[C@@](C)(OC)[C@@H](OC(C)=O)[C@H](C)O2)[C@H](C)[C@@H](O[C@@H]2O[C@H](C)C[C@H](N(C)C)[C@H]2OC(=O)NNCc2ccccn2)C(C)(O)C[C@@H](C)/C(=N\OCCCC2CCCCC2)[C@H](C)[C@@H](O)[C@]1(C)O		20092 (clarithromycin-resistant)		MIC		Mycobacterium avium complex	0.78 µg/mL
CCCCCCCCCCCCCCCC(=O)NC(CCC(=O)O)(CCC(=O)O)CCC(=O)O		EO-P-1		MIC		Mycobacterium chelonae	36 µg/mL

Repeating the first 3 entries:

structure | setting | strain | tested at | read-out | method | agent | result
CCc1nc2cc(F)ccn2c1C(=O)NCc1ccc(N2CCN(c3ccc(OC(F)(F)F)cc3)[C@@H](CC)C2)c(F)c1.Cl |  |  | 0.0065 µM | inhibition | fluorescence | Mycobacterium avium | 85%
Cc1ccc2oc(=S)n(-c3cccc(Cl)c3)c(=S)c2c1 | 21 d | 6509/96 |  | MIC |  | Mycobacterium kansasii | 4 µM
Cc1nc2cc(Cl)ccn2c1C(=O)NCc1ccc(N2CCN(c3ccc(OC(F)(F)F)cc3)[C@@H](C)C2)c(F)c1.Cl |  |  | 0.11 µM | inhibition | fluorescence | Mycobacterium avium | 85%